# Assay results taken from paper PMC7830303 (Molecules, 2021).
# How the values were obtained:
# [1] = Channel current measurement, droplet contact method; details: DOPE/DOPG (3:1 mol/mol), peptide at 100 nM, 100 mV, 200 mM KCl, 23 °C
# [2] = as above; details: peptide at 100 nM, 100 mV, 23 °C
SMILES,Electrophysiological signal type on DOPE/DOPG bilayer [1],Electrophysiological signal type on DOPC bilayer [2]
CC[C@H](C)[C@@H]1NC(=O)[C@@](C)(N)CCCC=CCCC[C@@](C)(C(=O)N[C@@H](CC(C)C)C(=O)N[C@@H](CCCCN)C(=O)N[C@@H](CO)C(=O)N[C@@H](C)C(=O)N[C@@H](CCCCN)C(=O)N[C@@H](CCCCN)C(=O)N[C@@H](Cc2ccccc2)C(=O)N[C@H](C(=O)N[C@@H](CCCCN)C(=O)N[C@@H](C)C(=O)N[C@@H](Cc2ccccc2)C(=O)N[C@@H](CCCCN)C(N)=O)C(C)C)NC(=O)[C@H](CCCCN)NC(=O)[C@H](CCCCN)NC1=O [Peptide 2] (H-[S5]IKK[S5]LKSAKKFVKAFK-NH2; staple 1-5),successive increase of current signals,spike signals
"CC[C@H](C)[C@H](NC(=O)CN)C(=O)N[C@@H](CCCCN)C(=O)N[C@@H](CCCCN)C(=O)N[C@@H](Cc1ccccc1)C(=O)N[C@@H](CC(C)C)C(=O)N[C@@H](CCCCN)C(=O)N[C@@H](CO)C(=O)NC(C)(C)C(=O)N[C@@H](CCCCN)C(=O)N[C@@H](CCCCN)C(=O)N[C@@H](Cc1ccccc1)C(=O)N[C@H](C(=O)N[C@@H](CCCCN)C(=O)NC(C)(C)C(=O)N[C@@H](Cc1ccccc1)C(=O)N[C@@H](CCCCN)C(N)=O)C(C)C [Peptide 1, reference compound] (H-GIKKFLKS[Aib]KKFVK[Aib]FK-NH2)",membrane disruption activity,
CC[C@H](C)[C@H](NC(=O)CN)C(=O)N[C@@H](CCCCN)C(=O)N[C@@H](CCCCN)C(=O)N[C@@H](Cc1ccccc1)C(=O)N[C@@H](CC(C)C)C(=O)N[C@@H](CCCCN)C(=O)N[C@]1(C)CCCCCCC=CCCC[C@@](C)(C(=O)N[C@@H](Cc2ccccc2)C(=O)N[C@@H](CCCCN)C(N)=O)NC(=O)[C@H](CCCCN)NC(=O)[C@H](C(C)C)NC(=O)[C@H](Cc2ccccc2)NC(=O)[C@H](CCCCN)NC(=O)[C@H](CCCCN)NC(=O)[C@H](C)NC1=O [Peptide 8] (H-GIKKFLK[R8]AKKFVK[S5]FK-NH2; staple 8-15),successive increase of current signals,subsequent increase in current signals

# Bridge positions count the residues as written; N and C are the ends. Square brackets hold non-standard residues; d marks the D form. Peptide text beside a SMILES is read from it. R8 = C=CCCCCCC[C@@](C)(N)C(=O)O; S5 = C=CCCC[C@](C)(N)C(=O)O; Aib = CC(C)(N)C(=O)O
